Results from patent US20240391889A1, “ANTIMICROBIAL COMPOUNDS AND THE METHODS OF USE” (priority 2021, published 2024).
Square brackets hold non-standard residues; d marks the D form. Peptide text beside a SMILES is read from it. NCyclohexylmethylGly = O=C(O)CNCC1CCCCC1; N(tridecyl)Gly = CCCCCCCCCCCCCNCC(=O)O; NFurfurylGly = O=C(O)CNCc1ccco1; Gly(N(CH2)3NH2) = NCCCNCC(=O)O; Nphe = O=C(O)CNCc1ccccc1; NPrGly = CCCNCC(=O)O; Nlys = NCCCCNCC(=O)O

System: HepG2 liver cells
Assay type: cell-based
Experimental: The mammalian cell lines that were tested (HepG2, 3T3, and HaCat) were incubated with RMG9-11 for 72 hours and cell viability was determined via mitochondrial activity using an MTT reduction assay where viable cells reduce MTT to formazan. Toxicity is reported as the concentration of the peptoid that results in a 50% reduction in viable cells, termed toxicity dose 50% or TD50. […] SR is defined as the TD50 divided by MIC and provides a measure of the therapeutic window for a compound. Typically for most lead compounds that would continue through development and optimization, a SR of 10 is preferred while an SR of 100 is more desirable for a compound moving into preclinical animal model evaluation.
Hepatocellular carcinoma (HepG2), mouse fibroblast (3T3), and human keratinocyte (HaCat) cells were cultured in Dulbeco modified eagle media (DMEM) containing 10% fetal bovine serum (FBS) and 1% penicillin, streptomycin, and glutamine (PSG) at 37° C. and 5% CO2. Cells were collected and adjusted to […] to 4×10^5 cells/mL in phenol-red free DMEM and plated (100 μL) 96 well plates. 2-fold serial dilutions of 10× peptoid (11.1 μL) were added to each well in triplicate. Water (vehicle) was used as a negative control. Plates were incubated at 37° C. in 5% CO2 for 72 hours. […] Plates were read on a SPECTRAMAX M5 plate reader (Abs. 570 nm). […]

CCCCCCCCCCCCCNCC(=O)N(CCC)CC(=O)N(CC(=O)N(CCCCN)CC(=O)N(CC(=O)N(CC(=O)N(CCCN)CC(N)=O)Cc1ccccc1)Cc1ccco1)CC1CCCCC1 [Compound 911-M10] (H-[N(tridecyl)Gly][NPrGly][NCyclohexylmethylGly][Nlys][NFurfurylGly][Nphe][Gly(N(CH2)3NH2)]-NH2; N-terminus assumed)
C. neoformans SR (HepG2 TD50/MIC) (HepG2 TD50 divided by C. neoformans MIC): 63-125 | C. albicans SR (HepG2 TD50/MIC) (HepG2 TD50 divided by MIC against planktonic C. albicans): 16
